Experimental data reported in PubChem BioAssay AID704 (The Scripps Research Institute Molecular Screening Center, 2007).
Only a part is listed here, and it is no random draw. Calls of active or inactive are those of the source.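 Rule for the calls: active = inhibition above the screen-wide mean plus 3 SD (cut at about 35% in these data); inactive = the rest.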

Sequences of proteins named here, by UniProt entry; tags and fusion partners are left off.
UniProt P05866, whole entry: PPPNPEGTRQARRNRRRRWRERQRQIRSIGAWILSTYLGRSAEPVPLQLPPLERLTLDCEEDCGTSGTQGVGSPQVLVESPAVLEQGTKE

Target: Protein Rev (Human immunodeficiency virus type 1 group M subtype B (isolate WMJ22)) (UniProt P05866)
Experiment: HIV-1 Rev-RRE binding inhibitors, primary screen, biochemical, FRET, protein-RNA interaction (AID 704);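 note: 0% = median DMSO wells and 100% = median Neomycin B control wells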
Settings: Rev peptide-RRE RNA binding, at 8 µM, hits give high values
How it was run: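 Material: labelled RRE RNA duplex and labelled Rev peptide / Buffer or medium: HEPES pH 7.5 salt buffer with EDTA / Compound dosing: single point, 8 µM final nominal compound concentration / Benchmarks: DMSO low control, neomycin B high control / Timing: 5 min preincubation and 15 min binding, 25 °C / Technique: FRET fluorescence readout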

Compound | inhibition
O=C(NCC1(N2CCOCC2)CCCCC1)c1cc2ccccc2o1 | inactive: 9.17%
O=C(OC1CN2CCC1CC2)C1c2ccccc2Oc2ccccc21 (stereo not given) | inactive: -4.83%
COc1ccc(NC2CCN(CCc3ccccc3)CC2)c(OC)c1 | inactive: -6.22%
N#CC1(Nc2ccccc2)CCN(CCc2ccccc2)CC1 | inactive: 2.19%
O=C(NCC1(N2CCOCC2)CCCCC1)c1cc(=O)[nH]c2ccccc12 | inactive: -0.14%
CN1CCC(Nc2cccc(F)c2)CC1 | inactive: 6.56%
N/C(=N\O)c1c(N)no[n+]1[O-] | inactive: 1.2%
c1ccc(CN2CCC(Nc3ccccc3)CC2)cc1 | inactive: 6.22%
CCOc1ncccc1C(=O)NCC1(N2CCOCC2)CCCCC1 | inactive: -0.71%
CCC(CO)(C(=O)OC1CN2CCC1CC2)c1ccccc1 (stereo not given) | inactive: 5.1%
